The values below come from patent publication US20030091594A1.

The Kd is the free concentration of one partner at which half of the binding sites on the other are occupied at equilibrium, for simple one-to-one binding. High values mean lower affinity, low ones higher affinity. As usually defined, the koff is a measure of how fast the partners let go of each other. Low readings indicate slow dissociation, high ones fast dissociation. Usually kon stands for a measure of how fast the partners come together. Read a high kon as faster complex formation.

For experiment [1], the target named is CD4-induced (CD4i) monoclonal antibody 48d. Description: SPR (BIACORE 2000), MAb 48d amine-coupled to CM5 chip, gp120 premixed with saturating sCD4 as analyte, 25 C. (In general: Surface plasmon resonance follows binding to a sensor surface in real time, without labels.)
Experiment [2] concerns the target CD4-induced (CD4i) monoclonal antibody 17b. Description: SPR (BIACORE 2000), MAb 17b amine-coupled to CM5 chip, gp120 premixed with saturating sCD4 as analyte, 25 C.
For experiment [3] the target is unchanged. In words: SPR (BIACORE 2000), MAb 17b on the chip.

“8x gp120 pre-incubated with soluble CD4 (from UniProt P01730 26-394)” had a Kd in experiment [1] of 2 nM. Besides, in experiment [2], the koff came to 0.0009 s⁻¹ and the kon turned out to be 200000 M⁻¹ s⁻¹. Also, in experiment [3], the fold increase of on-rate against 8x gp120 without sCD4 was determined as 2 fold.
